Anti-infective test results gathered from many reports (values: NIAID ChemDB through PubChem).

Common to all: growth or infection tests

Lines come from different laboratories, so protocols vary. ECn: concentration that inhibits the pathogen or its effect by n%. Fold resistance: result on the changed form divided by that on wild type. A number after MIC or MFC names an inhibition level or a share of isolates. Blank or dashed fields: not listed here. Percent inhibition refers to the dose given; in toxicity tests it is the harm to the cells.

structure	strain or isolate	tested at	cell line	read-out	changes	read by	agent	value
COc1cc(O)c2c(=O)cc(-c3ccccc3)oc2c1CC=C(C)C	Type 2/Mexican isolate	25 µM	LLC-MK2	inhibition		plaque count	Dengue virus	76.9%
Nc1nc2c(ncn2C=C2CC2CO)c(=O)[nH]1			Rat embryo fibroblasts	EC50		plaque count	Rat cytomegalovirus	4.7 µM
CC1CCC(C(=O)N(c2cc(C#CC(C)(C)C)sc2C(=O)O)C2CCC(O)CC2)CC1	Con1 (gt 1b)		Huh7	fold resistance	A486T	luciferase	Hepatitis C virus	55.7
CCc1nc(CC(=O)NN=C(C)C)nn1CC				MIC			Respiratory syncytial virus	>400 µg/mL
O=c1[nH]c(=O)n([C@H]2C[C@H](O)[C@@H](CO)O2)cc1Br		126.8 µg/mL	ME	inhibition		hybridisation	Murine polyoma virus	91.9%
Nc1nc(=O)n2ccn([C@@H]3O[C@H](CO)[C@@H](O)[C@H]3O)c2n1				EC50			West Nile virus	>100 µM
Nc1nc(=O)n([C@H]2C[C@H](O)[C@@H](CO)O2)cc1/C=C/Cl	LA (TYPE 1)		PRK	EC50		cytopathic effect	Bovine herpesvirus 1	150 µg/mL
CC[C@H]1OC(=O)[C@H](C)[C@@H](O[C@H]2C[C@@](C)(OC)[C@@H](OC(C)=O)[C@H](C)O2)[C@H](C)[C@@H](O[C@@H]2O[C@H](C)C[C@H](N(C)C)[C@H]2OC(=O)NNCCOc2ccccc2)C(C)(O)C[C@@H](C)/C(=N\OCCCC2CCCCC2)[C@H](C)[C@@H](O)[C@]1(C)O	20039 (clarithromycin-susceptible)			MIC			Mycobacterium avium complex	0.78 µg/mL
C=Cc1cn([C@@H]2O[C@H](CO)[C@@H](O)[C@@H]2O)c(=O)[nH]c1=O	Asahikawa	0.01 µg/mL	HELF	inhibition		plaque count	Varicella zoster virus	0%
CC(C)Nc1nc2cc(Cl)c(Cl)cc2n1[C@H]1O[C@@H](CO)[C@H](O)[C@@H]1O	4955REC (THR700ALA)		MRC-5	EC50		hybridisation	Human cytomegalovirus	0.06 µM
CC(N)C12CC3CC(CC(C3)C1)C2	Influenza A H3N2 isolate 90		MDCK	EC50		ELISA	Influenza A virus	14.5 µg/mL
Brc1ccc(Cn2ccc3nc(-c4ccccc4)nc-3c2)cc1	Marloie (type 1)		MDBK	EC50		ELISA	Bovine viral diarrhea virus	0.5 µM
Nc1nc(NC2CC2)c2ncn(C=C3CC3CO)c2n1			HFF	EC50		plaque count	Murine cytomegalovirus	2.2 µM
C=CCc1ccc(O)c(OC)c1	2780			MIC90		turbidity	Candida albicans	485 µg/mL
Nc1nc2c(ncn2COC(CO)CO)c(=O)[nH]1	C8303		MRC-5	EC50		hybridisation	Human cytomegalovirus	0.8 µM
CC[C@H]1OC(=O)[C@H](C)[C@@H](O[C@H]2C[C@@](C)(OC)[C@@H](OC(C)=O)[C@H](C)O2)[C@H](C)[C@@H](O[C@@H]2O[C@H](C)C[C@H](N(C)C)[C@H]2OC(=O)NN2CCCC2)C(C)(O)C[C@@H](C)/C(=N\OCCCC2CCCCC2)[C@H](C)[C@@H](O)[C@]1(C)O	20096 (clarithromycin-resistant)			MIC			Mycobacterium avium complex	3.13 µg/mL
Cc1cn([C@@H]2O[C@H](CO)[C@@H](O)[C@@H]2O)c(=O)[nH]c1=O	HIRAI	0.01 µg/mL	HELF	inhibition		plaque count	Varicella zoster virus	24%
O=c1[nH]c(=O)n([C@H]2C[C@H](O)[C@@H](CO)O2)cc1/C=C\Cl	LA (TYPE 1)		PRK	EC50		cytopathic effect	Bovine herpesvirus 1	7 µg/mL
O=c1[nH]c(=O)n([C@@H]2O[C@H](CO)[C@@H](O)[C@@H]2O)cc1/C=C/Cl	Ohtomo	0.01 µg/mL	HELF	inhibition		plaque count	Varicella zoster virus	100%
Nc1nc2c(ncn2COCCO)c(=O)[nH]1			VERO	EC50		plaque count	Simian varicella-zoster virus	>25 µM
CCCCCCCCCCCCCCCCCCCCCCOCC(C)(COCCCCCCCCCCCCCCCCCCCCCC)CO[C@]1(C(=O)O)C[C@H](OS(=O)(=O)O)[C@@H](NC(C)=O)[C@H]([C@H](OS(=O)(=O)O)[C@@H](COS(=O)(=O)O)OS(=O)(=O)O)O1	SA11 (serotype 3)		MA-104	EC50		plaque count	Simian rotavirus	>100 µg/mL
O=C(N[C@@H](C(=O)N1CCC[C@H]1c1ncc(-c2ccc(-c3ccc(-c4cnc([C@@H]5CCCN5C(=O)[C@H](NC(=O)C5CC5)c5ccccc5)s4)cc3)cc2)s1)c1ccccc1)C1CC1	genotype 1b		Huh7.5	EC50	M202L	luciferase / reporter gene	Hepatitis C virus	0.0000021 µM
CC[C@H]1OC(=O)[C@H](C)[C@@H](OC(=O)CC2CCCCC2)[C@H](C)[C@@H](O[C@@H]2O[C@H](C)C[C@H](N(C)C)[C@H]2O)C(C)(O)C[C@@H](C)/C(=N\OCCCOc2ccccc2)[C@H](C)[C@@H](O)[C@]1(C)O	20039 (clarithromycin-susceptible)			MIC			Mycobacterium avium complex	3.13 µg/mL
Oc1ccccc1N=Cc1cccc(O)c1O	L 27/01			MIC99			Cryptococcus gattii	11.3 µg/mL
Nc1nc2c(ncn2COCCO)c(=O)[nH]1	V69730 (acyclovir-susceptible)		HFF	EC50		cytopathic effect	Herpes simplex virus 2	0.5 µg/mL
Cn1cc(C(=O)NCc2ccc(Cl)cc2)c(=O)c2cc(CN3CCOCC3)ccc21			REF	EC50		plaque count	Rat cytomegalovirus	0.2 µM
S=c1[nH]nc(Cc2nc3n(n2)CCCCC3)o1				MIC			Sindbis virus	>80 µg/mL
Cc1cn([C@@H]2O[C@H](CO)[C@@H](O)[C@@H]2F)c(=O)nc1N	Ohtomo	0.001 µg/mL	HELF	inhibition		plaque count	Varicella zoster virus	52%
Nc1nc2c(ncn2CCC(CO)CO)c(=O)[nH]1	NEW YORK 1		BHK-21	EC50		plaque count	Bovine herpesvirus 2	1.2 µg/mL
O=C(NNC(=O)Nc1cc(C(F)(F)F)cc(C(F)(F)F)c1)Nc1cc(C(F)(F)F)cc(C(F)(F)F)c1	KL21			MIC			Klebsiella pneumoniae	>300 µM
Nc1nc2c(ncn2COC2COP(=O)(O)OC2)c(=O)[nH]1			GPE	EC50		plaque count	Guinea pig cytomegalovirus	1.84 µM
CCn1nc(Cc2n[nH]c(=S)o2)nc1C				MIC			Punta Toro virus	>400 µg/mL
C=C[C@@H](NC(=O)C(=O)c1c(C)c(C(=O)Nc2ccc(F)c(C#N)c2)n(C)c1C)C(F)(F)F			HepG2.2.15	EC50		PCR	Hepatitis B virus	<0.001 µM
CC[C@H]1OC(=O)[C@H](C)[C@@H](OC2C[C@@](C)(OC)[C@@H](OC(=O)CCCCc3ccccc3)[C@H](C)O2)[C@H](C)[C@@H](O[C@@H]2O[C@H](C)C[C@H](N(C)C)[C@H]2O)C(C)(O)C[C@@H](C)/C(=N\OCCCOc2ccccc2)[C@H](C)[C@@H](O)[C@]1(C)O	20039 (clarithromycin-susceptible)			MIC			Mycobacterium avium complex	0.78 µg/mL
COc1ccc(-n2c(Cc3nc4n(n3)CCCC4)n[nH]c2=S)cc1				MIC			Sindbis virus	>400 µg/mL
Oc1ccccc1N=Cc1ccccc1	23/10993			MIC99			Cryptococcus gattii	5.7 µg/mL
Nc1ncnc2c1ncn2C[C@H](O)CO	TYPE 3			MIC			Parainfluenza virus	240 µg/mL
CCOC(=O)c1c(C)nc(NCCCNc2ccnc3cc(Cl)ccc23)nc1-c1ccccc1	L 27/01			MIC99			Cryptococcus gattii	32 µg/mL
Nc1ncnc2c1ncn2[C@@H]1C[C@H](NC=O)[C@@H](O)[C@H]1O			HFF	EC50			West Nile virus	>100 µg/mL
Nc1nc(=O)n2ccn([C@H]3C[C@H](O)[C@@H](CO)O3)c2n1				EC50			West Nile virus	>100 µM
CCC(=O)O[C@H]1[C@H](C)OC(O[C@H]2[C@H](C)[C@@H](O[C@@H]3O[C@H](C)C[C@H](N(C)C)[C@H]3O)C(C)(O)C[C@@H](C)/C(=N\OCCCOc3ccccc3)[C@H](C)[C@@H](O)[C@](C)(O)[C@@H](CC)OC(=O)[C@@H]2C)C[C@@]1(C)OC	20039 (clarithromycin-susceptible)			MIC			Mycobacterium avium complex	1.56 µg/mL
Cc1nc(NCCCCNc2ccnc3cc(Cl)ccc23)nc(-c2ccccc2)c1C(=O)OC(C)C	LMM 818			MIC99			Cryptococcus gattii	11.3 µg/mL
Nc1nc2c(ncn2COC(CO)CO)c(=O)[nH]1	CSG		MRC-5	EC50		plaque count	Vervet monkey cytomegalovirus	13 µM
Nc1nc(=O)n2ccn([C@@H]3O[C@H](CO)C[C@H]3O)c2n1	TYPE 2			EC50			Dengue virus	>100 µM
O=C(Nc1ccncc1)Nc1cc(C(F)(F)F)cc(C(F)(F)F)c1	KL21			MIC			Klebsiella pneumoniae	75 µM
CCN=C1NC2C(OC(CO)C(O)C2O)S1		0.01 µM	HEK 293	inhibition		flow cytometry	Kaposi sarcoma virus	17%
NC(=O)NNC(=O)Nc1cc(C(F)(F)F)cc(C(F)(F)F)c1	KL21			MIC			Klebsiella pneumoniae	>446 µM
C#CC1(NC(=O)C(=O)c2c(C)c(C(=O)Nc3ccnc(Br)c3F)n(C)c2C)CC(F)(F)C1			HepG2.2.15	EC50		PCR	Hepatitis B virus	<0.001 µM
Cc1nc(CC(=O)NN)nn1C				MIC			Sindbis virus	>80 µg/mL
CCc1cn([C@@H]2O[C@H](CO)[C@@H](O)[C@@H]2O)c(=O)[nH]c1=O	Ohtomo	10 µg/mL	HELF	inhibition		plaque count	Varicella zoster virus	51%
COC(=O)N[C@H](C(=O)N1CCC[C@H]1c1ncc(-c2ccc(-c3ccc(-c4cnc([C@@H]5CCCN5C(=O)[C@@H](NC(=O)OC)C(C)C)[nH]4)cc3)cc2)[nH]1)C(C)C	1b		ET	EC50	P32L	luciferase	Hepatitis C virus	0.000027 µM
CC[C@H]1OC(=O)[C@H](C)[C@@H](OC2C[C@@](C)(OC)[C@@H](OC(C)=O)[C@H](C)O2)[C@H](C)[C@@H](O[C@@H]2O[C@H](C)C[C@H](N(C)C)[C@H]2O)C(C)(O)C[C@@H](C)/C(=N\OCCCOc2ccccc2)[C@H](C)[C@@H](O)[C@]1(C)O	20039 (clarithromycin-susceptible)			MIC			Mycobacterium avium complex	1.56 µg/mL
CCOC(=O)c1c(C)nc(OCCCNc2ccnc3cc(Cl)ccc23)nc1-c1ccccc1	29/10893			MIC99			Cryptococcus gattii	4 µg/mL
CC(=O)N[C@H]1[C@H]([C@H](O)[C@H](O)CO)OC(C(=O)O)=C[C@@H]1N=C(N)N	Influenza A/Beijing/32/92 (H3N2)		MDCK	EC50			Influenza A virus	0.65 µM
CN(NC(=O)Nc1cc(C(F)(F)F)cc(C(F)(F)F)c1)C(=O)Nc1cc(C(F)(F)F)cc(C(F)(F)F)c1	KL21			MIC			Klebsiella pneumoniae	>300 µM
CO/N=C1\CN(c2nc3c(cc2F)c(=O)c(C(=O)O)cn3C2CC2)CC1CN	94 isolates ciprofloxacin-susceptible			MIC50			Streptococcus pneumoniae	0.031 µg/mL
CCOC(=O)c1c(C)nc(NCCCCNc2ccnc3cc(Cl)ccc23)nc1-c1ccccc1[N+](=O)[O-]	27JF			MIC99			Cryptococcus neoformans	16 µg/mL
CCC(CC)[C@H](NC(C)=O)[C@@H]1C[C@@H](C(=O)O)C[C@H]1N=C(N)N	H1N1 A/PR/8/34		MDCK	EC50			Influenza A virus	1 µM
CCCCCCCCCCCCNNC(=O)O[C@H]1[C@H](O[C@@H]2[C@@H](C)[C@H](O[C@H]3C[C@@](C)(OC)[C@@H](OC(C)=O)[C@H](C)O3)[C@@H](C)C(=O)O[C@H](CC)[C@@](C)(O)[C@H](O)[C@@H](C)/C(=N/OCCCC3CCCCC3)[C@H](C)CC2(C)O)O[C@H](C)C[C@@H]1N(C)C	20096 (clarithromycin-resistant)			MIC			Mycobacterium avium complex	50 µg/mL

A second listing of 5 rows from above:

{"structure": "Nc1nc2c(ncn2COCCO)c(=O)[nH]1", "cell line": "VERO", "read-out": "EC50", "read by": "plaque count", "agent": "Simian varicella-zoster virus", "value": ">25 µM"}
{"structure": "Cc1cn([C@@H]2O[C@H](CO)[C@@H](O)[C@@H]2F)c(=O)nc1N", "strain or isolate": "Ohtomo", "tested at": "0.001 µg/mL", "cell line": "HELF", "read-out": "inhibition", "read by": "plaque count", "agent": "Varicella zoster virus", "value": "52%"}
{"structure": "CC(=O)N[C@H]1[C@H]([C@H](O)[C@H](O)CO)OC(C(=O)O)=C[C@@H]1N=C(N)N", "strain or isolate": "Influenza A/Beijing/32/92 (H3N2)", "cell line": "MDCK", "read-out": "EC50", "agent": "Influenza A virus", "value": "0.65 µM"}
{"structure": "Nc1nc2c(ncn2COC(CO)CO)c(=O)[nH]1", "strain or isolate": "C8303", "cell line": "MRC-5", "read-out": "EC50", "read by": "hybridisation", "agent": "Human cytomegalovirus", "value": "0.8 µM"}
{"structure": "CC1CCC(C(=O)N(c2cc(C#CC(C)(C)C)sc2C(=O)O)C2CCC(O)CC2)CC1", "strain or isolate": "Con1 (gt 1b)", "cell line": "Huh7", "read-out": "fold resistance", "changes": "A486T", "read by": "luciferase", "agent": "Hepatitis C virus", "value": "55.7"}